Source: article PMC7035229

Legend:
[1] = biological target: recombinant murine prion protein PrP_(23–231) (mouse) (UniProt P04925); test: ELISA
[2] = biological target: cellular prion protein (PrP^C) of wild-type mouse primary cortical neurons (mouse (endogenous in mouse primary neurons)) (UniProt P04925); test: immunostaining of cells or tissue

Row | Substance | EC50 [1] | reduction in binding to Prnp^−/− MPNs relative to WT [2]
1 | soluble aggregates of α-synuclein (SAAs) (from UniProt P37840 1-140) (natural protein) | 0.0343 µM | 
2 | soluble aggregates of Aβ_(1–42) (SBAs) (from UniProt P05067 672-713) (peptide) |  | > 50%
